Data taken from patent US6333406A, “Gene encoding protein antigens of Plasmodium falciparum and uses therefor” (priority 1994, dated 2001).

Test system: Nc1nc2c(c(=O)[nH]1)N=C(CNc1ccc(C(=O)N[C@@H](CCC(=O)O)C(=O)O)cc1)CN2
Assay: purified protein, by the assay type
Conditions: pH 7.6, 37.0 °C

Substance: DHFR^Thr108 (reconstructed P. falciparum DHFR) (Plasmodium falciparum K1; N108T/R59C)
- Km (other: substrate Km of DHFR^Thr108, as stated in text): 17 µM
- Km (other: substrate Km, reconstructed P.f. DHFR Thr108 (Table IV)): 16.8 ± 0.6 µM
